Laboratory results reported in paper PMC11760092, “Pretreatment with serine protease inhibitors impairs Leishmania amazonensis survival on macrophages” (Parasites & Vectors, 2025).

Tests used:
[1] = tested on: Leishmania amazonensis-WT promastigotes; experiment: Antipromastigote assay (MTT); type: cell-based; conditions: CC50 in macrophages/IC50 in parasite
Method: Leishmania amazonensis–WT promastigotes, in the logarithmic phase of growth, were transferred to 96-well culture plates (final concentration 2 × 10^6 cells/mL) and exposed to different concentrations of inhbitors during 72 h at 25 °C. The cell viability was evaluated by the 3-(4,5-dimethylthiazol-2-yl)-2,5 diphenyltetrazolium bromide (MTT) method (obtained from Sigma-Aldrich). The inhibitory concentration of 50% of parasite growth (IC50) values were calculated using GraphPad Prism 8 software […]. Three independent experiments in triplicate were performed. Amphotericin B (Cristália, São Paulo, SP, Brazil) was used as a reference drug.

[2] = tested on: L. amazonensis (RFP) amastigotes; experiment: Antiamastigote assay (RFP fluorescence, infected peritoneal macrophages); type: cell-based, Leishmania amazonensis; conditions: CC50 in macrophages/IC50 in parasite
Method: Peritoneal macrophages from BALB/c mice were obtained by peritoneal lavage and distributed in 24-well plates at 2 × 10^6 cells/mL in RPMI medium (Cultilab) containing 10% FBS and a 0.5% penicillin and streptomycin solution (complete RPMI). The plates were incubated for 1 h at 37 °C and 5% CO2, washed with phosphate-buffered saline (PBS), and then reincubated in complete RPMI medium overnight. The cells were washed again with PBS and infected with stationary growth phase L. amazonensis (RFP) promastigotes at a 10:1 ratio for 4 h at 33 °C. The plates were washed with PBS and the inhibitors were added at different concentrations and incubated for 72 h. After this time, each well was scraped to remove attached cells and the reading was taken with a spectrofluorimeter (FLx800, BioTek Instruments, Winooski, VT, USA) at 530 nm and 590 nm of excitation and emission, respectively. […] All assays were performed in triplicate and repeated three times. Results were calculated as the percentage of amastigote survival compared with the nontreated control group, and IC50 values were determined using GraphPad Prism 8 software.

Compound: PF-429242
- Selectivity index (SI) Promastigote [1]: 227.8
- Selectivity index (SI) Amastigote [2]: 1.6

Compound: Cc1ccc(S(=O)(=O)N[C@@H](CCCCN)C(=O)CCl)cc1 [TLCK]
- Selectivity index (SI) Promastigote [1]: 2.0
- Selectivity index (SI) Amastigote [2]: 0.7
